From ChEMBL document CHEMBL1148369, “Novel S-substituted aminoalkylamino ethanethiols as potential antidotes against sulfur mustard toxicity” (2004) come the findings set out here.

The test system of this assay is Mus musculus. The assay can be described thus: LD50 following oral dosing.

In turn, `Cl.Cl.N=C(SCCNCCN)c1cccnc1` came in with a median lethal dose (LD50) of 4520 mg/kg.
Consider `Cl.Cl.NCCCNCCSC1CCCCC1`, for which the 50% lethal dose (LD50) was 1130 mg/kg.
Compound `Cl.Cl.NCCCNCCSc1ccc(Cl)cc1` had a 50% lethal dose (LD50) of 1590 mg/kg.
As for `Cl.Cl.NCCNCCSc1ccncc1`, the LD50 worked out at 4520 mg/kg.
For the compound `Cl.Cl.NCCCNCCSc1ccccc1`, the LD50 stood at 1340 mg/kg.
The compound `CC(C)SCCNCCCN.Cl.Cl` showed an LD50 of 2260 mg/kg.
As to `Cl.Cl.NCCNCCSc1ccc(Cl)cc1`, the LD50 came out at 1130 mg/kg.
To `CCSCCNCCCN.Cl.Cl` belongs 4520 mg/kg; to `CSCCNCCN.Cl.Cl`, 4520 mg/kg.
Under `Cl.Cl.NCCNCCSC1CCCCC1` stands 1130 mg/kg.
`Cc1ccc(SCCNCCN)cc1.Cl.Cl` gave an LD50 of 1900 mg/kg.
Under `CSCCNCCCN.Cl.Cl` stands 3200 mg/kg; under `CCSCCNCCN.Cl.Cl`, 3200 mg/kg; under `Cl.Cl.NCCSc1ccccc1`, 2260 mg/kg.
Under `CCCSCCNCCN.Cl.Cl` stands 4520 mg/kg; under `CCCCSCCNCCN.Cl.Cl`, 4520 mg/kg.
Under `Cl.Cl.NCCCCNCCSc1ccccc1` stands 952 mg/kg.
In turn, `Cl.Cl.N=C(SCCNCCCN)c1cccnc1` gave an LD50 of 4520 mg/kg.
Under `Cc1ccc(SCCNCCCN)cc1.Cl.Cl` stands 1130 mg/kg; under `CC(C)SCCNCCN.Cl.Cl`, 4520 mg/kg.
Under `Cl.Cl.NCCNCCSc1ccccc1` stands 1250 mg/kg; under `CCCSCCNCCCN.Cl.Cl`, 2260 mg/kg.

The LD50 is the dose expected to kill half of the subjects tested. Low readings indicate greater toxicity, high ones lower toxicity.
